From patent US7632666B2 (priority 2005, dated 2009)

Biological target: haloalkane dehalogenase DmbA (Mycobacterium bovis, UniProt Q9XB14, T96A)
Conditions: Table 2; 21° C., 50 mM Tris pH 8.2, enzyme 1 μM

CCOC(=O)C(Br)CC (racemic) [ethyl 2-bromobutyrate]
E-values DmbA: >200
